Assays:
[1] = Droplet sliding time on E7-infused (LC-infused) PTFE SLIPS; settings: for bulk surfactant concentration giving average sliding time 58-62 s (~1 min): water droplets, E7-infused SLIPS; for difference in sliding time (Δt) versus PBS droplet: 100 μM SDS in PBS
[2] = Droplet sliding time on 5CB-infused PTFE SLIPS; settings: for sliding time: PBS droplet with 100 μM SDS
[3] = Droplet sliding time on silicone oil-infused PTFE SLIPS

Row | SMILES | bulk surfactant concentration giving average sliding time 58-62 s (~1 min) ([1]; 20°) [mM] | times slower than PBS droplets ([2]; 100 μM SDS droplet on 5CB-infused surfaces) [times] | sliding time ([2]; 4 cm, 20°, 5CB nematic) [s] | sliding time ([2]; 5CB-infused SLIPS at 37° C. (above nematic/isotropic transition)) [s] | sliding time ([3]; PBS droplet with 100 μM SDS, 4 cm, 20°) [s] | sliding time ([3]; PBS droplets with SDS, regardless of SDS concentration) [s] | sliding time ([1]; 100 μM SDS in water with 100 mM NaCl) [s] | increase of sliding time versus NaCl at 0.5 mM ([1]; 100 μM SDS in water, NaCl at 100 mM) [times] | difference in sliding time (Δt) versus PBS droplet ([1]; 40 μL droplet) [s] | sliding time ([1]; 50 μL PBS droplet with 10 μM SDS, 4 cm, 20°) [s] | sliding time ([1]; 50 μL PBS droplet with 100 μM SDS, 4 cm, 20° tilt, E7 nematic, ambient temperature) [s] | difference in sliding time (Δt) versus PBS droplet ([1]; 50 μL, sliding angle 17°) [s] | difference in sliding time (Δt) versus PBS droplet ([1]; 50 μL, sliding angle 23°) [s] | difference in sliding time (Δt) versus PBS droplet ([1]; 60 μL droplet) [s] | sliding time ([1]; PBS droplet with 100 μM SDS, 4 cm, 20°, E7-infused SLIPS at 70° C. (above nematic/isotropic transition)) [s]
1 | CCCCCCCCCCCCOCCOCCOCCOCCO [C12E4] | 0.1 | – | – | – | – | – | – | – | – | – | – | – | – | – | –
2 | CCCCCCCCCCCCOS(=O)(=O)[O-].[Na+] [SDS, Sodium dodecyl sulfate] | 1 | ~15 | ~63 | ~8 | ~4 | ~3 | ~62 | 15 | 37 ± 3 | ~5 | ~63 | 86 ± 11 | 7 ± 2 | 7 ± 2 | ~8

Source: US12291651B2, “Liquid crystal-infused slippery anti-fouling surfaces” (priority 2021, dated 2025)
